Pooled drug test results. Numbers come from NIAID ChemDB, via PubChem.

All rows: target-level tests; organism: HIV-1; protein: Reverse transcriptase

Lines come from different laboratories, so protocols vary. An empty or dashed field is not shown. ICn is the concentration giving n% inhibition.

| smiles | changes | measure | read by | strain | result |
|---|---|---|---|---|---|
| CN1C(=O)c2cc(CCc3ccncc3)cnc2N(C2CC2)c2nc(Cl)ccc21 | RT-Y181C | IC50 | nucleotide incorporation / radiometric |  | <1 µM |
| CCNc1cccnc1N1CCN(Cc2cc3ccccc3[nH]2)CC1 |  | IC50 | nucleotide incorporation |  | <100 µM |
| CCN1c2ncc(CCOc3ccc(-c4ccc(C(=O)O)c(C)c4)cc3C)cc2C(=O)N(C)c2cccnc21 |  | IC50 | nucleotide incorporation / radiometric | IIIB | <0.05 µM |
| N#Cc1cc(Cl)cc(Oc2cc(OCc3[nH]nc4nc(N5CCNCC5)ccc34)ccc2Cl)c1 |  | IC50 | nucleotide incorporation / radiometric |  | <20 µM |
| CCN1c2nc(Cl)ccc2NC(=O)c2cc(CCc3ccncc3)cnc21 |  | IC50 | nucleotide incorporation / radiometric | WT | <1 µM |
| Cc1ccc(C(F)(F)F)c(Cl)c1-n1nnnc1SCC(=O)Nc1ccc(C#CC(C)(C)O)cc1Cl | RT-K103 Y181C | IC50 | PicoGreen / fluorescence |  | <1 µM |
| CC(C)Nc1cccnc1N1CCN(C(=O)c2ccc[nH]2)CC1 |  | IC50 | nucleotide incorporation |  | <100 µM |
| CC(C)(C#Cc1ccc(NC(=O)CSc2nnnn2-c2ccc(CC3CC3)cc2Cl)c(Cl)c1)OCCN1CCCC1 |  | IC50 | PicoGreen / fluorescence | WT | <1 µM |
| CCN1c2ncc(CCOc3ccc(-c4ccccc4)cc3)cc2C(=O)N(C)c2cccnc21 |  | IC50 | nucleotide incorporation / radiometric | IIIB | <0.05 µM |
| CCCN1C(=O)c2cc(Cl)nnc2N(CC)c2ccc(C)cc21 |  | IC50 |  |  | >330 µM |
| CC(C)(C)c1ccc(-n2nnnc2SCC(=O)Nc2ccc(NC(=O)Cc3ccccn3)cc2Cl)c(Cl)c1 |  | IC50 | PicoGreen / fluorescence | WT | <1 µM |
| CCCN1C(=O)c2ccnnc2N(C2CC2)c2ccccc21 |  | IC50 |  |  | ~33 µM |
| CC(C)(C#Cc1ccc(NC(=O)CSc2nnnn2-c2ccccc2Cl)c(Cl)c1)C(=O)O | RT-K103 Y181C | IC50 | PicoGreen / fluorescence |  | <1 µM |
| CCCN1c2ccc(C)cc2N(CC)C(=O)c2cc(Cl)nnc21 |  | IC50 |  |  | >330 µM |
| CCN1c2ncc(CCOc3ccc(-c4ccc(C(=O)O)o4)cc3C)cc2C(=O)N(C)c2cccnc21 | RT-K103N Y181C | IC50 | nucleotide incorporation / radiometric | IIIB | >0.1 µM |
| N#Cc1cc(C#N)cc(Oc2cc(Cl)cc(OCC(=O)Nc3ccc(S(N)(=O)=O)cc3Cl)c2)c1 |  | IC50 | nucleotide incorporation / radiometric |  | <20 µM |
| O=C(CSc1nnnn1-c1ccc(C2CC2)cc1Cl)Nc1ccc(C#CCCN2CCCC2)cc1Cl | RT-K103 Y181C | IC50 | PicoGreen / fluorescence |  | <1 µM |
| CC(C)=CCOc1cc(NC(=S)c2ccoc2C)ccc1Cl | RT-Y188L | IC50 |  |  | >100 µM |
| CC(C)(C#Cc1ccc(NC(=O)CSc2nnnn2-c2ccc(C3CC3)cc2Cl)c(Cl)c1)NCc1cc[n+]([O-])cc1 | RT-K103 Y181C | IC50 | PicoGreen / fluorescence |  | <1 µM |
| CCN1c2ncc(CCOc3ccc(NC(=O)c4ccc(C(=O)O)cc4)cc3C)cc2C(=O)N(C)c2cccnc21 |  | IC50 | nucleotide incorporation / radiometric | IIIB | <0.05 µM |
| N=C(N)c1ccc(N=NNc2ccc(C(=N)N)cc2)cc1 |  | IC50 | nucleotide incorporation |  | 600 µM |
| CC(C)(C)c1ccc(-n2nnnc2SCC(=O)Nc2ccc(OCC(=O)NCc3ccc(C(=O)O)cc3)cc2Cl)c(Cl)c1 | RT-K103 Y181C | IC50 | PicoGreen / fluorescence |  | <1 µM |
| N#Cc1cc(Cl)cc(Oc2cc(Cl)cc(OCC(=O)Nc3ccc(C#N)cc3Cl)c2)c1 |  | IC50 | nucleotide incorporation / radiometric |  | <20 µM |
| CC(C)Nc1cccnc1N1CCN(C(=O)c2cc3cc(Br)ccc3[nH]2)CC1 |  | IC50 | nucleotide incorporation |  | <100 µM |
| C#Cc1ccc(NC(=O)CSc2nnnn2-c2ccc(C(C)(C)C)cc2Cl)c(Cl)c1 |  | IC50 | PicoGreen / fluorescence | WT | <1 µM |
| Nc1ccn([C@H]2CC[C@@H](COP(=O)(O)OP(=O)(O)OP(=O)(O)O)O2)c(=O)n1 |  | Ki | nucleotide incorporation | LAV | 0.9 µM |
| CCN1c2ncc(CCc3ccncc3)cc2C(=O)N(C)c2ccc(CCc3ccncc3)nc21 |  | IC50 | nucleotide incorporation / radiometric | WT | <1 µM |
| CCN(CC)c1cccnc1N1CCN(C(=O)c2cc3ccccc3[nH]2)CC1 |  | IC50 | nucleotide incorporation |  | <100 µM |
| Cc1nnc2c3ccccc3c(N3CCc4ccc(C(=O)O)cc4C3)nn12 |  | IC50 | RT activity / fluorescence | 98US_MSC5016 | 25.9 µM |
| CC(C)(C#Cc1ccc(NC(=O)CSc2nnnn2-c2ccc(C3CC3)cc2Cl)c(Cl)c1)NC(=O)CN1CCC(O)CC1 |  | IC50 | PicoGreen / fluorescence | WT | <1 µM |
| Cn1cc(C(=O)Nc2cc(C(=O)NCC(=O)Nc3cc(C(=O)Nc4cc(C(=O)NCCC(=N)N)n(C)c4)n(C)c3)cn2C)cc1NC(=O)CN=C(N)N |  | IC50 | nucleotide incorporation |  | ~150 µM |
| CC(=O)NC(C)(C)C#Cc1ccc(NC(=O)CSc2nnnn2-c2cc(C(F)(F)F)ccc2Cl)c(Cl)c1 | RT-K103 Y181C | IC50 | PicoGreen / fluorescence |  | <1 µM |
| N#Cc1cc(Cl)cc(Oc2cc(OCc3[nH]nc4nc(N5CC(CN)C5)ccc34)ccc2Cl)c1 |  | IC50 | nucleotide incorporation / radiometric |  | <20 µM |
| CC(C)=CCC/C(C)=C/CC/C(C)=C/CC/C(C)=C/CC/C(C)=C/CC/C(C)=C/Cc1cc(O)ccc1O |  | IC50 | nucleotide incorporation |  | 6.7 µM |
| CC(C)(C)c1ccc(-n2nnnc2SCC(=O)Nc2ccc(C(=O)Nc3ccc(C(=O)O)cc3)cc2Cl)c(Cl)c1 | RT-K103 Y181C | IC50 | PicoGreen / fluorescence |  | <1 µM |
| CCNc1cccnc1N1CCN(C(=O)c2cc3cc(OCc4ccccc4)ccc3[nH]2)CC1 |  | IC50 | nucleotide incorporation |  | <100 µM |
| Cn1cc(NC(=O)c2cc(NC(=O)c3cc(NC(=O)CCCCCCC(=O)Nc4cc(C(=O)Nc5cc(C(=O)Nc6cc(C(=O)NCCC(=N)N)n(C)c6)n(C)c5)n(C)c4)cn3C)cn2C)cc1C(=O)NCCC(=N)N |  | IC50 | nucleotide incorporation |  | >400 µM |
| CC(C)(C)c1ccc(-n2nnnc2SCC(=O)Nc2ccc(-c3ccc(/C=C/C(=O)O)s3)cc2Cl)c(Cl)c1 | RT-K103 Y181C | IC50 | PicoGreen / fluorescence |  | <1 µM |
| Cc1cc(OCCN(C)C)ccc1NC(=O)COc1ccc(Cl)c(Oc2cc(Cl)cc(C#N)c2)c1 |  | IC50 | nucleotide incorporation / radiometric |  | <20 µM |
| Cc1cn([C@H]2CC[C@@H](COP(=O)(O)OP(=O)(O)OP(=O)(O)O)O2)c(=O)[nH]c1=O |  | Ki | nucleotide incorporation | LAV | 0.03 µM |
| O=C(CSc1nnnn1-c1ccc(C2CC2)cc1Cl)Nc1ccc(-c2ccc(OCCN3CCCCC3)cc2)c(F)c1Cl | RT-K103 Y181C | IC50 | PicoGreen / fluorescence |  | <1 µM |
| CCCNc1cccnc1N1CCN(Cc2cc(C)c(OC)c(C)c2)CC1 |  | IC50 | nucleotide incorporation |  | >100 µM |
| Cc1cc(Cl)c(-n2nnnc2SCC(=O)Nc2ccc(C#CC(C)(C)O)cc2Cl)cc1C(F)(F)F |  | IC50 | PicoGreen / fluorescence | WT | <1 µM |
| CCN1c2ncc(CCOc3ccc(-c4c[n+]([O-])ccc4C)cc3C)cc2C(=O)N(C)c2cccnc21 |  | IC50 | nucleotide incorporation / radiometric | IIIB | <0.05 µM |
| CC(C)(C)Nc1nccnc1N1CCN(C(=O)c2cc3cc(F)ccc3[nH]2)CC1 |  | IC50 | nucleotide incorporation |  | <100 µM |
| Cc1c(N2CCc3ccccc3C2)nn2c(C)nnc2c1C |  | IC50 | RT activity / fluorescence | IIIB | 57.3 µM |
| CCc1cc(NCc2nc3c(C)ccc(C)c3o2)c(=O)[nH]c1C |  | IC50 | nucleotide incorporation |  | 0.047 µM |
| CC(C)(C#Cc1ccc(NC(=O)CSc2nnnn2-c2cc(C(F)(F)F)ccc2Cl)c(Cl)c1F)C(=O)O | RT-K103 Y181C | IC50 | PicoGreen / fluorescence |  | <1 µM |
| Cc1cc(OCC(=O)Nc2ccc(S(N)(=O)=O)cc2Cl)cc(Oc2cc(Cl)cc(C#N)c2)c1 |  | IC50 | nucleotide incorporation / radiometric |  | <20 µM |
| CCN1c2ncc(CCOc3ccc(-c4ccc(CC(=O)O)cc4)cc3C)cc2C(=O)N(C)c2cccnc21 | RT-K103N Y181C | IC50 | nucleotide incorporation / radiometric | IIIB | <0.05 µM |
| NS(=O)(=O)c1ccc(NC(=O)CNc2cccc(Oc3ccccc3)c2)c(Cl)c1 |  | IC50 | nucleotide incorporation / radiometric |  | <20 µM |
| O=c1[nH]c(=O)n([C@H]2C[C@H](O)[C@@H](COP(=O)(O)OP(=O)(O)OP(=O)(O)O)O2)cc1I |  | Ki | nucleotide incorporation | LAV | 1.8 µM |
| Cn1cc(C(=O)Nc2cc(C(=O)NCCCCCC(=O)Nc3cc(C(=O)Nc4cc(C(=O)NCCC(=N)N)n(C)c4)n(C)c3)cn2C)cc1NC(=O)CN=C(N)N |  | IC50 | nucleotide incorporation |  | ~180 µM |
| Nc1ccc2c(c1)CN(c1nn3c(C4CC4)nnc3c3ccccc13)CC2 |  | IC50 | RT activity / fluorescence | IIIB | 0.19 µM |
| CCNc1cccnc1N1CCN(C(=O)c2cc3cc(F)ccc3[nH]2)CC1 |  | IC50 | nucleotide incorporation |  | <100 µM |
| CCN1c2ncc(CCOc3ccc(-c4ccc(CCC(=O)O)o4)cc3)cc2C(=O)N(C)c2cccnc21 |  | IC50 | nucleotide incorporation / radiometric | IIIB | <0.05 µM |
| CC(C)(C#Cc1ccc(NC(=O)CSc2nnnn2-c2ccc(C3CC3)cc2Cl)c(Cl)c1)C(=O)N1CCC(C(=O)O)CC1 |  | IC50 | PicoGreen / fluorescence | WT | <1 µM |
| CCCN1C(=O)c2ccnnc2N(CCC)c2ccccc21 |  | IC50 |  |  | <330 µM |
| CC(=O)Nc1ccc2c(c1)CN(c1nn3c(C)nnc3c3ccccc13)CC2 |  | IC90 | RT activity / fluorescence | KER2008 | 20 µM |
| Cn1cc(NC(=O)c2cc(NC(=O)c3cc(NC(=O)c4cc(C(=O)Nc5cc(C(=O)Nc6cc(C(=O)Nc7cc(C(=O)NCCC(=N)N)n(C)c7)n(C)c6)n(C)c5)cc(C(=O)Nc5cc(C(=O)Nc6cc(C(=O)Nc7cc(C(=O)NCCC(=N)N)n(C)c7)n(C)c6)n(C)c5)c4)cn3C)cn2C)cc1C(=O)NCCC(=N)N |  | IC50 | nucleotide incorporation |  | ~150 µM |
| CC(C)(C)c1ccc(-n2nnnc2SCC(=O)Nc2ccc(C(=O)N3CCOCC3)cc2Cl)c(Cl)c1 | RT-K103 Y181C | IC50 | PicoGreen / fluorescence |  | <1 µM |
| CCN1c2ncc(CCc3cccc(N)c3)cc2C(=O)N(C)c2ccc(Cl)nc21 |  | IC50 | nucleotide incorporation / radiometric | WT | <1 µM |
| CC(C)(C)c1ccc(-n2nnnc2SCC(=O)Nc2ccc(NC(=O)CC3CCCC3)cc2Cl)c(Cl)c1 | RT-K103 Y181C | IC50 | PicoGreen / fluorescence |  | <1 µM |
| CCN1c2ncc(CCOc3ccc(-c4cncnc4)cc3)cc2C(=O)N(C)c2cccnc21 | RT-K103N Y181C | IC50 | nucleotide incorporation / radiometric | IIIB | >0.1 µM |
| CC(C)(C#Cc1ccc(NC(=O)CSc2nnnn2-c2ccc(C(C)(C)C)cc2Cl)c(Cl)c1)OCC(=O)NCc1ccco1 | RT-K103 Y181C | IC50 | PicoGreen / fluorescence |  | <1 µM |
| CCNc1cccnc1N1CCN(C(=O)c2cc3cc(OC)c(OC)cc3[nH]2)CC1 |  | IC50 | nucleotide incorporation |  | <100 µM |
| CC(C)(C#Cc1ccc(NC(=O)CSc2nnnn2-c2cc(C(C)(C)C)cc(Br)c2Cl)c(Cl)c1)C(=O)O | RT-K103 Y181C | IC50 | PicoGreen / fluorescence |  | <1 µM |
| CC(C)=CCOc1cc(NC(=S)c2ccsc2C)ccc1Cl |  | IC50 |  |  | 0.2 µM |